The source of these data is patent US7060486B2 (priority 1998, dated 2006).

This series is described as follows: Batch culture corrosion loss of SAE 1018 steel in modified Baar's medium. Particulars: ampicillin 100 μg/mL added before D. vulgaris.

Regarding `CC1(C)S[C@@H]2[C@H](NC(=O)[C@H](N)c3ccccc3)C(=O)N2[C@H]1C(=O)O` [ampicillin], the “mass loss less than when ampicillin was added after SRB” value by setting is: (1 week) 40%; (3 weeks) 14%.
